Anti-infective test results gathered from many reports (values: NIAID ChemDB through PubChem).

Shared fields: whole-cell or culture tests; agent: Streptococcus pneumoniae; read-out: MIC

Lines come from different laboratories, so protocols vary.

| smiles | strain or isolate | value |
|---|---|---|
| CC[C@H]1OC(=O)[C@H](C)C(=O)[C@H](C)[C@@H](O[C@@H]2O[C@H](C)C[C@H](N(C)C)[C@H]2O)[C@@]2(C)C[C@@H](C)C(=NC(C)=O)[C@H](C)[C@@H](OC/C(=N/OCc3ccc(-c4cccc(N)n4)s3)CO2)[C@]1(C)O | 700906 (erythromycin A-resistant) | 2 µg/mL |
| CC(=O)NC[C@H]1CN(c2ccc(-c3ccsc3)c(F)c2)C(=O)O1 | UC9912 | ≤0.125 µg/mL |
| CC[C@H]1OC(=O)[C@H](C)C(=O)[C@H](C)[C@@H](O[C@@H]2O[C@H](C)C[C@H](N(C)C)[C@H]2O)[C@@]2(C)C[C@@H](C)C(=NC(C)=O)[C@H](C)[C@@H](OC/C(=N\OCc3ccc(C(N)=O)s3)CO2)[C@]1(C)O | 7701 (erythromycin A-resistant) | 0.5 µg/mL |
| O=C(O)NC[C@H]1CC(c2ccc(-n3cccc3)c(F)c2)=NO1 | UC9912 | 0.5 µg/mL |
| CC(=O)NC[C@H]1CN(c2ccc3c(c2)OCc2nccn2-3)C(=O)O1 | SP665 | 0.125 µg/mL |
| CC(=O)NC[C@H]1CN(c2ccc(-c3csc(C)c3)c(F)c2)C(=O)O1 | UC9912 | 0.5 µg/mL |
| CCC(=O)NC[C@H]1CN(c2ccc(C3CCS(=O)(=O)CC3)c(F)c2)C(=O)O1 | UC9912 | 0.5 µg/mL |
| CC[C@H]1OC(=O)[C@@](C)(F)C(=O)[C@H](C)[C@@H](O[C@@H]2O[C@H](C)C[C@H](N(C)C)[C@H]2O)[C@@]2(C)C[C@@H](C)C(=NC(C)=O)[C@H](C)[C@@H](OC/C(=N/OCc3ccc(-c4cccc(N)n4)s3)CO2)[C@]1(C)O | 49619 (erythromycin A-susceptible) | <0.06 µg/mL |
| CC[C@H]1OC(=O)[C@H](C)C(=O)[C@H](C)[C@@H](O[C@@H]2O[C@H](C)C[C@H](N(C)C)[C@H]2O)[C@](C)(OC)C[C@@H](C)C2=NCCN3C(=O)O[C@@]1(C)[C@H]3[C@H]2C | ATCC 6303 | 0.06 µg/mL |
| CC[C@H]1OC(=O)[C@@](C)(F)C(=O)[C@H](C)[C@@H](O[C@@H]2O[C@H](C)C[C@H](N(C)C)[C@H]2O)[C@@]2(C)C[C@@H](C)C(=NC(C)=O)[C@H](C)[C@@H](OC/C(=N\OCc3ccc(-c4csnn4)nc3)CO2)[C@]1(C)O | 700906 (erythromycin A-resistant) | <0.06 µg/mL |
| O=C(NNC(=O)Nc1cc(C(F)(F)F)cc(C(F)(F)F)c1)Nc1ccccc1 | STP51 (penicillin-resistant) | >200 µM |
| CCOC(=O)c1nc(-c2ccc(N3C[C@H](CNC(C)=O)OC3=O)cc2F)ns1 | UC9912 | >16 µg/mL |
| CC[C@H]1OC(=O)[C@H](C)C(=O)[C@H](C)[C@@H](O[C@@H]2O[C@H](C)C[C@H](N(C)C)[C@H]2O)[C@@]2(C)C[C@@H](C)C(=NC(C)=O)[C@H](C)C(OC/C=C/CO2)[C@]1(C)O | 49619 (erythromycin-susceptible) | 0.25 µg/mL |
| NC1CCN(c2ccc3c(=O)c(C(=O)O)cn(C4CC4)c3c2Cl)C1 | R6-C11 | 0.5 µg/mL |
| COc1ccc(-c2ccc(N3CC(CNC(C)=O)CC3=O)cc2)ccc1=O | UC9912 | >64 µg/mL |
| C=CC(=O)NC[C@H]1CN(c2ccc(C3CCS(=O)(=O)CC3)c(F)c2)C(=O)O1 | UC9912 | 0.25 µg/mL |
| CC[C@H]1OC(=O)[C@@](C)(F)C(=O)[C@H](C)[C@@H](O[C@@H]2O[C@H](C)C[C@H](N(C)C)[C@H]2O)[C@@]2(C)C[C@@H](C)C(=NC(C)=O)[C@H](C)[C@@H](OC/C(=N\OCc3cccc(C(N)=O)c3)CO2)[C@]1(C)O | 49619 (erythromycin A-susceptible) | <0.06 µg/mL |
| COc1ccc(-c2ccc(C3=CC(CNC(C)=O)OC3=O)cc2)ccc1=O | UC9912 | <0.5 µg/mL |
| CC[C@H]1OC(=O)[C@H](C)C(=O)[C@H](C)[C@@H](O[C@@H]2O[C@H](C)C[C@H](N(C)C)[C@H]2O)[C@@]2(C)C[C@@H](C)C(=NC(C)=O)[C@H](C)C(OC/C(=C\c3ccccc3)CO2)[C@]1(C)O | 7701 (erythromycin-resistant-MEF) | 0.25 µg/mL |
| CC[C@H]1OC(=O)[C@@](C)(F)C(=O)[C@H](C)[C@@H](O[C@@H]2O[C@H](C)C[C@H](N(C)C)[C@H]2O)[C@@]2(C)C[C@@H](C)C(=NC(C)=O)[C@H](C)[C@@H](OC/C(=N\OCc3ccc(-n4cccn4)nc3)CO2)[C@]1(C)O | 700906 (erythromycin A-resistant) | <0.06 µg/mL |
| C[C@H]1NCc2cc(-c3c(F)cc4c(=O)c(C(=O)O)cn(C5CC5)c4c3OC(F)F)ccc21 | D-1687 | 0.06 µg/mL |
| O=C(CCC(=O)Nc1cc(C(F)(F)F)cc(C(F)(F)F)c1)Nc1cc(C(F)(F)F)cc(C(F)(F)F)c1 | STP6301 | >300 µM |
| CC[C@H]1OC(=O)[C@H](C)C(=O)[C@H](C)[C@@H](O[C@@H]2O[C@H](C)C[C@H](N(C)C)[C@H]2O)[C@@]2(C)C[C@@H](C)/C(=N\C(=O)OC)[C@H](C)C(OC/C(=C\C=C\c3ccccc3)CO2)[C@]1(C)O | 49619 (erythromycin-susceptible) | <0.06 µg/mL |
| COc1c(N2CCNC(C)C2)ccc2c(=O)c(C(=O)O)cn(C3CC3)c12 | R6-G8 | 8 µg/mL |
| CC[C@H]1OC(=O)[C@@](C)(F)C(=O)[C@H](C)[C@@H](O[C@@H]2O[C@H](C)C[C@H](N(C)C)[C@H]2O)[C@@]2(C)C[C@@H](C)C(=NC(C)=O)[C@H](C)[C@@H](OC/C(=N\OCc3ccc(-c4cccc(N)n4)s3)CO2)[C@]1(C)O | 700906 (erythromycin A-resistant) | <0.06 µg/mL |
| C=C1COC2[C@@H](C)C(=NC(C)=O)[C@H](C)C[C@@](C)(OC1)[C@H](O[C@@H]1O[C@H](C)C[C@H](N(C)C)[C@H]1O)[C@@H](C)C(=O)[C@@H](C)C(=O)O[C@H](CC)[C@@]2(C)O | 700906 (erythromycin-resistant-ERM) | >64 µg/mL |
| O=C(Nc1ccc(C(F)(F)F)cc1)Nc1ccc(C(F)(F)F)cc1 | STP51 (penicillin-resistant) | 38 µM |
| CC[C@H]1OC(=O)[C@H](C)C(=O)[C@H](C)[C@@H](O[C@@H]2O[C@H](C)C[C@H](N(C)C)[C@H]2O)[C@@]2(C)C[C@@H](C)C(=NC(C)=O)[C@H](C)C(OC/C(=C\c3cnc4ccccc4c3)CO2)[C@]1(C)O | 49619 (erythromycin-susceptible) | 0.125 µg/mL |
| CC(=O)NC[C@H]1CN(c2ccc(-c3nsc(C#N)n3)c(F)c2)C(=O)O1 | UC9912 | 1 µg/mL |
| O=C(O)NC[C@H]1CC(c2cc(F)c(N3CCOCC3)c(F)c2)=NO1 | UC9912 | 1 µg/mL |
| CC(=O)NC[C@H]1CN(c2ccc(-c3ccn[nH]3)c(F)c2)C(=O)O1 | UC9912 | ≤0.5 µg/mL |
| C[C@H]1NCc2cc(-c3ccc4c(=O)c(C(=O)O)cn(C5CC5)c4c3OC(F)F)ccc21 | R6-C11 | 0.06 µg/mL |
| CC[C@H]1OC(=O)[C@H](C)C(=O)[C@H](C)[C@@H](O[C@@H]2O[C@H](C)C[C@H](N(C)C)[C@H]2O)[C@@]2(C)C[C@@H](C)C(=NC(C)=O)[C@H](C)C(OC/C(=C\C#Cc3ccccc3)CO2)[C@]1(C)O | 7701 (erythromycin-resistant-MEF) | 0.25 µg/mL |
| NC1CCN(c2c(F)cc3c(=O)c(C(=O)O)cn(C4CC4)c3c2Cl)C1 | D-1687 | 0.5 µg/mL |
| O=C(CC(=O)Nc1ccc(F)cc1)Nc1ccc(F)cc1 | STP6301 | >300 µM |
| CC[C@H]1OC(=O)[C@H](C)C(=O)[C@H](C)[C@@H](O[C@@H]2O[C@H](C)C[C@H](N(C)C)[C@H]2O)[C@@]2(C)C[C@@H](C)C(=NC(C)=O)[C@H](C)[C@@H](OC/C(=N\OCc3ccc(-c4cccc(N)n4)s3)CO2)[C@]1(C)O | 700906 (erythromycin A-resistant) | <0.06 µg/mL |
| CC[C@H]1OC(=O)[C@H](C)C(=O)[C@H](C)[C@@H](O[C@@H]2O[C@H](C)C[C@H](N(C)C)[C@H]2O)[C@@]2(C)C[C@@H](C)C(=NC(C)=O)[C@H](C)C(OC/C(=C\C=C\c3cccc([N+](=O)[O-])c3)CO2)[C@]1(C)O | 7701 (erythromycin-resistant-MEF) | 0.5 µg/mL |